Measured values: PubChem BioAssay AID493005 (National Center for Advancing Translational Sciences (NCATS), 2010)
This is a selection; strong and weak results do not stand in their true shares. Active and inactive are the calls of the source. Calls come from the whole dose curve; as a rule, active = well fitted inhibition curve with a large enough effect in the main read-out, with a control signal flat (not every such curve was filed as active); inconclusive = small, poorly fitted or top-dose-only effect, or effect the other way, or a change in a side signal; inactive = no such curve, though single readings can be large or run the other way.

The chains behind the UniProt entries cited, without tags or fusion partners. Where a name states a change or a piece, a line headed by the entry shows the natural chain unless it says otherwise.
UniProt Q99816: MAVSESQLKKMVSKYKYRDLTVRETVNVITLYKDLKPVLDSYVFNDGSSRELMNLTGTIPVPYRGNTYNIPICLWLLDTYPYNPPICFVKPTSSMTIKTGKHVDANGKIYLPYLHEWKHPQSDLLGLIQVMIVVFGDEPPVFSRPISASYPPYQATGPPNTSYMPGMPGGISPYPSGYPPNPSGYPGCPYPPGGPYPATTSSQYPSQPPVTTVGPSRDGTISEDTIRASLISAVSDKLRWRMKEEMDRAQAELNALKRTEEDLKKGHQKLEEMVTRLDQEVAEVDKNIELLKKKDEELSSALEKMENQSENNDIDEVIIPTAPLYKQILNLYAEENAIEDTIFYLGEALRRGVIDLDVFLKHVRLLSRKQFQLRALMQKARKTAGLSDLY

What follows are molecules tested against Tumor susceptibility gene 101 protein (Homo sapiens) (UniProt Q99816) (assay: qHTS Assay for Iinhibitors of HIV-1 Budding by Blocking the Interaction of PTAP/TSG101). Conditions: Fluorescence polarization, FITC-PTAP peptide / Tsg101 binding; at 115 µM (top of the series).
Excerpt: NIH Molecular Libraries Probe Production Network [MLPCN] NIH Chemical Genomics Center [NCGC] MLPCN Grant: 1 R03 MH087464-01A1 PI Name: Dr. Eric Freed, NCI NCGC Assay Overview: Stages of the HIV-1 replication cycle, specifically virus assembly and release, provide underexploited targets for the development of novel antiviral inhibitors. The late stages of HIV-1 replication are mediated by the Gag precursor protein, Pr55Gag. Expression of Pr55Gag is both necessary and sufficient for the production of virus-like particles from Gag-expressing cells. The Gag protein hijacks key host proteins involved in endocytic machinery of the host cell to promote endosomal processing and viral budding. The budding process requires a direct interaction between a […] (PTAP) motif in the p6 domain of Gag and the cellular endosomal sorting protein known as Tsg101. In this way, the Gag PTAP motif promotes the host cells to recruit viral particles to the plasma membrane where the new viral particles are released, effectively turning the host cells into viral factories. A fluorescence anisotropy assay has been developed to quantitatively measure the PTAP-Tsg101 interaction which can be used to screen for inhibitors of this interaction.
NCGC Assay Protocol Summary: Two uL of the Tsg101 binding domain in buffer (10 mM HEPES pH 7.5; 0.15 M NaCl, 0.01% Tween 20; 3 mM EDTA;0.1 mM TCEP) was dispensed into Greiner black MB 1536-well plates (final concentration 10 uM). Then, 23 nL of compounds or DMSO were delivered to each well using a pin tool. Finally, 2 uL of a FITC-labeled peptide containing the PTAP motif (1) in the same buffer was dispensed (50 nM final concentration) and the binding was allowed to proceed for 20 min. at r.t. Fluorescent polarization was determined using FITC excitation and polarized emission filters on a Perkin Elmer Viewlux. Keywords: Tsg101, PTAP, Gag, HIV, fluorescent polarization, MLSMR, MLPCN, NIH Roadmap, qHTS, NCGC
Note: % of control where 0% means no effect.

SMILES | activity change, negative = inhibition
CCN(N=Nc1nonc1N)c1nonc1N | inactive: -0.137%
Nc1cccc2ccc([As](=O)(O)O)cc12 | inactive: 70.1%
Cc1ccc(NP(=O)(Oc2ccccc2F)Oc2ccccc2F)nc1 | inactive: -5.05%
CN(C(=O)Cc1ccc(Cl)c(Cl)c1)[C@H]1CCCC[C@@H]1N1CCCC1 | inactive: -1%
Cc1cc(SC(NC(=O)c2ccc(F)cc2)C(Cl)(Cl)Cl)ncn1 (centres undefined) | inactive: -0.332%
CCOP(=O)(Nc1ccccc1)OCC | inactive: -2.26%
CCCC1OP(N)(=O)OCC1CC (centres undefined) | inactive: -5.06%
CC(=O)Nc1ccc([As](=O)(O)O)cc1 | inactive: 4.19%
O=C(O)c1ccccc1[As](=O)(O)O | inactive: -0.605%
O=P(Nc1nc2ccc(Cl)cc2s1)(c1ccccc1)c1ccccc1 | inactive: -2.71%
Nc1cc(N)c2nonc2c1[N+](=O)[O-] | inactive: -1.71%
CC(C)CC(=O)NC(Sc1ccc(Cl)cc1)C(Cl)(Cl)Cl (centres undefined) | inactive: -4.91%
O=C(NC(Sc1ccncn1)C(Cl)(Cl)Cl)c1ccccc1 (centres undefined) | inactive: -0.624%
Oc1ccccc1CNc1ccccn1 | inactive: -4.91%
Cc1ccc(OP(=O)(Nc2nccs2)Oc2ccc(C)cc2)cc1 | inactive: -0.518%
COc1ccccc1OP(=O)(Nc1ccc(C)cn1)Oc1ccccc1OC | inactive: 5.82%
CN1CCCC(OC(=O)C(c2ccccc2)c2ccccc2)C1 (centres undefined) | inactive: -3.97%
Clc1ccc(Cl)c(NC2=NCC(CBr)S2)c1 (centres undefined) | inactive: -0.157%
NC(=O)c1cc([N+](=O)[O-])cc([N+](=O)[O-])c1N | inactive: -11.4%
Cc1ccc(N/C(=N/P(=O)(N2CCOCC2)N2CCOCC2)N2CCOCC2)cc1 | inactive: 0.436%
CN(C(=O)Cc1ccc(Cl)c(Cl)c1)[C@H]1CCCC[C@H]1N1CCCC1 | inactive: 1%
CN(C)C(=O)OCCc1n(C)cc[n+]1C | inactive: -3.26%
CC(C)=N/N=C(\N)N[N+](=O)[O-] | inactive: -3.4%
CC1CCN(C(=O)Oc2c(Cl)cc(Cl)c3cccnc23)CC1 | inactive: -1.61%
C[N+]1=C2C=CC=CC=C2SC12C([N+](=O)[O-])=CC([N+](=O)[O-])=C[C-]2[N+](=O)[O-] (centres undefined) | inactive: -3.12%

SMILES | activity change, negative = inhibition
Nc1ccc([As](=O)(O)c2ccc(N)cc2)cc1 | inactive: -3.6%
CCN(/C(=N/P(=O)(N1CCOCC1)N1CCOCC1)N1CCOCC1)c1ccc(OC)cc1 | inactive: -2.45%
O=[N+]([O-])c1cccc2n[nH]nc12 | inactive: -1.83%
CC(=O)N1C2C3N(C(C)=O)C1C1N(C(C)=O)C(C(N1C(C)=O)N3C(C)=O)N2C(C)=O | inactive: -2.62%
CCc1nc2c(n1)c1c(non1O)c1c2no[n+]1[O-] | inactive: -7.16%
O=[N+]([O-])c1cc([N+](=O)[O-])c(CCNc2ccccc2)c([N+](=O)[O-])c1 | inactive: 1.77%
Cc1ccc(NP(=O)(Oc2ccccc2)Oc2ccccc2)nc1 | inactive: -1.55%
COc1ccc(C2=NCC(CBr)S2)cc1 (centres undefined) | inactive: -2.35%
COC(=O)C1(C)COP(=O)(Nc2ccccc2)OC1 (centres undefined) | inactive: -0.753%
O=[N+]([O-])c1cccc(NC2=NCC(CBr)S2)c1 (centres undefined) | inactive: -0.219%
O=C(O)CNc1ccc([As](=O)(O)O)cc1 | inactive: -2.17%
CC(C)(C)C(=O)NC(Sc1ccncn1)C(Cl)(Cl)Cl (centres undefined) | inactive: -0.341%
O=[N+]([O-])c1ncn(CCn2ncnc2[N+](=O)[O-])n1 | inactive: 1.05%
O=C(Nc1cc([As](=O)(O)O)ccc1O)c1ccccc1 | inactive: -3.94%
O=P1(N(CCCl)CCCl)OCCCS1 (centres undefined) | inactive: -0.0822%
C(Cc1nn[nH]n1)Cc1nn[nH]n1 | inactive: 1.32%
Nc1ccc([As](=O)(O)c2ccc([N+](=O)[O-])cc2)cc1 | inactive: -11.3%
O=C(OC1CN2CCC1CC2)c1cccc(Cl)c1 (centres undefined) | inactive: -3.37%
O=[N+]([O-])c1ccc(O)c(/C=N/Nc2ccc([N+](=O)[O-])cc2[N+](=O)[O-])c1 | inactive: -7.37%
CC(=O)NC(SC(=S)N(C)C)C(Cl)(Cl)Cl (centres undefined) | inactive: -5.41%
O=[N+]([O-])c1ncn(CCn2cnc([N+](=O)[O-])n2)n1 | inactive: -6.12%
O=[As](O)(c1ccccc1)c1ccc(O)cc1 | inactive: -0.625%
C[C@H]1OP(=O)(Oc2ccccc2)[C@H](O)[C@H](O)[C@H]1N=[N+]=[N-] (some centres undefined) | inactive: -3.05%
O=P(Nc1nc2ccccc2s1)(c1ccccc1)c1ccccc1 | inactive: 0.505%
COc1ccc(N)c([N+](=O)[O-])c1[N+](=O)[O-] | inactive: -8.51%

SMILES | activity change, negative = inhibition
O=P(Nc1ccccn1)(c1ccc(Br)cc1)c1ccc(Br)cc1 | inactive: -3.33%
CN(C)C1(CNC(=O)c2ccc(Cl)c(S(N)(=O)=O)c2)CCCCC1 | inactive: 0.643%
c1nnnn1CCn1cnnn1 | inactive: 1.64%
CC(C)C(=O)NC(Sc1ccccc1)C(Cl)(Cl)Cl (centres undefined) | inactive: 0.11%
O=P(Nc1nccs1)(c1ccccc1)c1ccccc1 | inactive: -4.45%
CC(=O)Nc1ccc(Oc2c([N+](=O)[O-])cc([N+](=O)[O-])cc2[N+](=O)[O-])cc1 | inactive: -5.88%
CC(=O)Nc1ccc([As](=O)(O)O)c(O)c1 | inactive: -2.01%
COC(=O)C1(C)COP(=O)(NCc2ccccc2)OC1 (centres undefined) | inactive: -1.97%
CC(=O)c1ccc(N2CC2c2ccncc2)cc1 (centres undefined) | inactive: -4.21%
N#C/C(=C\c1ccc(N(CCBr)CCBr)cc1)C(N)=O | inactive: -2.87%
C[C@H]1OP(=O)(Oc2ccccc2)C[C@@H]2O[C@@H]21 (some centres undefined) | inactive: -6.06%
C[C@@H]1C=CCP(=O)(Oc2ccccc2)O1 (some centres undefined) | inactive: -1.19%
Cc1ccccc1CN(C)C(=O)COC(=O)C(O)(c1ccccc1)c1ccccc1 | inactive: -4.74%
CCc1cc(O)c([N+](=O)[O-])c(C)c1[N+](=O)[O-] | inactive: -2.92%
CC(C)(C)C(=O)NC(Sc1ccccc1)C(Cl)(Cl)Cl (centres undefined) | inactive: 6.44%
CCOc1ccc(C2=NCC(CBr)S2)cc1 (centres undefined) | inactive: -2.18%
O=P1(Nc2nc3ccc(Cl)cc3s2)COc2ccccc2O1 (centres undefined) | inactive: -3.11%
O=c1c2cc([N+](=O)[O-])ccc2[nH]c2c([N+](=O)[O-])cc([N+](=O)[O-])cc12 | inactive: -4.76%
CN(C)C(=O)Oc1noc2ccccc12 | inactive: 0.427%
CC(NC(=O)COC(=O)C(O)(c1ccccc1)c1ccccc1)c1ccccc1 (centres undefined) | inactive: -1.21%
Cc1ccccc1OP(=O)(Nc1ccccn1)Oc1ccccc1C | inactive: -0.9%
CC(=O)NC(SC(=S)N(CC(C)C)CC(C)C)C(Cl)(Cl)Cl (centres undefined) | inactive: -7.57%
Cc1ccc(OP(=O)(Nc2ccccn2)Oc2ccc(C)cc2)cc1 | inactive: -5.96%
COC(=O)c1cc2c(s1)N=C(c1ccccc1)N(C)P2(=O)N1CCOCC1 (centres undefined) | inactive: -2.26%
CCC(=O)N1C2C3N(C(=O)CC)C1C1N(C(=O)CC)C(C(N1C(=O)CC)N3C(=O)CC)N2C(=O)CC | inactive: -3.97%

SMILES | activity change, negative = inhibition
O=C(OC1CN2CCC1CC2)c1ccccc1 (centres undefined) | inactive: 2.54%
O=P1(N(CCCl)CCCl)OCCC2CCCCN21 (centres undefined) | inactive: -1.49%
CCNC(=S)/N=C(\N)N[N+](=O)[O-] | inactive: 2.59%
O=C(NC1CCS(=O)(=O)C1)NP(=S)(Oc1ccccc1)Oc1ccccc1 (centres undefined) | inactive: 0.764%
Cc1ccc(NP(=O)(Oc2cccc(C)c2)Oc2cccc(C)c2)nc1 | inactive: -0.146%
c1ccc(-c2nn[nH]n2)c(-c2nn[nH]n2)c1 | inactive: -0.629%
CN(C(=O)Cc1ccc(Cl)c(Cl)c1)[C@H]1CC[C@@]2(CCCO2)C[C@@H]1N1CCCC1 | inactive: -0.96%
O=[N+]([O-])c1ccc2c(c1)nnn2O | inactive: -8.04%
CN(C)C(=O)c1cc([N+](=O)[O-])cc2c1-c1c(cc([N+](=O)[O-])cc1[N+](=O)[O-])C2=O | inactive: -2.72%
CN(C(=O)Cc1ccccc1)[C@@H]1CC[C@]2(CCCO2)C[C@H]1N1CCCC1 | inactive: -0.315%
CCOP1(=S)c2c(C)nn(CCC#N)c2N=C(c2ccc(F)cc2)N1C (centres undefined) | inactive: -8.2%
N#CCCN(C(=O)COC(=O)C(O)(c1ccccc1)c1ccccc1)c1ccc(F)cc1 | inactive: -2.1%
NC(=O)Nc1ccc([As](=O)(O)O)cc1 | inactive: 0.953%
Nc1ccccc1[As](=O)(O)c1ccccc1 | inactive: -4.14%
O=C(O)COc1ccc([As](=O)(O)O)cc1[N+](=O)[O-] | inactive: -2.13%
CS(=O)(=O)c1cc([N+](=O)[O-])c2no[n+]([O-])c2c1 | inactive: -8.68%
O=P(Nc1nccs1)(Oc1ccccc1)Oc1ccccc1 | inactive: -6.34%
O=P(Nc1nccs1)(c1ccccc1)c1nc2ccccc2s1 (centres undefined) | inactive: -1.2%
CCOP1(=S)c2c(C)nn(CCC#N)c2N=C(c2ccccc2F)N1C (centres undefined) | inactive: -11.6%
CCOP(=O)(Nc1cccc2ccccc12)OCC | inactive: -0.351%
COc1cc(C2NCCC3(OCCO3)C2(C)C)cc(OC)c1OC (centres undefined) | inactive: -0.887%
CCCOP(=S)(Nc1nc(N)cc(=O)[nH]1)OCCC | inactive: -0.876%
Cc1ccc(NCCc2c([N+](=O)[O-])cc([N+](=O)[O-])cc2[N+](=O)[O-])cc1 | inactive: -3.86%
Nc1cccc2c([As](=O)(O)O)cccc12 | inactive: -11.6%
